Values from PubChem BioAssay AID624099 (ICCB-Longwood, 2012).
Aim: 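Human genes that papillomavirus E2 requires to repress the HPV18 LCR promoter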 (primary screen). System: human C33A cervical carcinoma cells (HPV-negative) stably expressing BPV1 E2 and an HPV18 LCR luciferase reporter. Reagent: siRNA pool against human genes, 40 nM. Timing: 72 h. Detection: 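Per-well luciferase luminescence, z-scored on each plate against the plate mean and SD with control wells left out, then averaged across three replicate plates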. Direction: mean z-score and z-score: higher = stronger reporter signal, weaker E2 silencing. Active means: 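Hit if mean z-score reaches 2 and two or more of three replicate z-scores also reach 2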.
Here is one part, drawn at random, of about 21,000 reagents tested. 497 of them (2.4%) were called active. 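Higher z means weaker E2 silencing; only reporter increases were scored, and knock-downs that hurt cell survival may mask genuine repressor factors.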 The numbers tell different reagents against one gene apart. Reagent sequences are not shown.

gene	reagent no.	mean z-score	z-score, replicate A	z-score, replicate B	z-score, replicate C	Outcome
EBF2 (GeneID 64641)	1	0.63	0.69	0.76	0.45	inactive
EBF2 (GeneID 64641)	2	-0.07	-0.45	0.36	-0.1	inactive
LOC387884 (retired record) (GeneID 387884)	1	0.6	0.37	0.66	0.77	inactive
MCM2 (GeneID 4171)	1	-0.08	-0.24	-0.18	0.18	inactive
CLPSL1 (GeneID 340204)	1	0.43	0.3	0.64	0.36	inactive
RANBP2 (GeneID 5903)	1	0.31	0.2	0.52	0.2	inactive
HPD (GeneID 3242)	1	-0.91	-0.89	-1.05	-0.79	inactive
LOC388726 (retired record) (GeneID 388726)	1	-0.47	-0.54	-0.45	-0.43	inactive
IMPG1 (GeneID 3617)	1	0.56	0.64	0.39	0.65	inactive
ZNF300 (GeneID 91975)	1	0.33	0.37	0.67	-0.06	inactive
QNG1 (GeneID 84267)	1	0.94	0.58	1.04	1.19	inactive
MTMR6 (GeneID 9107)	1	0.2	0.32	0.16	0.11	inactive
LINC00312 (GeneID 29931)	1	0.06	-0.14	-0.19	0.51	inactive
OGFRL1 (GeneID 79627)	1	-0.67	-0.77	-0.63	-0.6	inactive
PTPRD (GeneID 5789)	1	-0.38	-0.39	-0.25	-0.49	inactive

Part of the list above, reduced to “z-score, replicate A”.
RANBP2 (GeneID 5903) = 0.2
HPD (GeneID 3242) = -0.89
LOC388726 (retired record) (GeneID 388726) = -0.54

Next records follow.
gene	reagent no.	mean z-score	z-score, replicate A	z-score, replicate B	z-score, replicate C	Outcome
TEP1 (GeneID 7011)	1	2.09	2.08	2.07	2.13	active
GRID2IP (GeneID 392862)	1	0.85	0.83	0.94	0.77	inactive
GRID2IP (GeneID 392862)	2	0.26	0.3	0.16	0.32	inactive
MLKL (GeneID 197259)	1	0.57	0.68	0.6	0.42	inactive
EPHB2 (GeneID 2048)	1	-0.24	0.12	-0.38	-0.48	inactive
TOLLIP (GeneID 54472)	1	1.03	1.36	0.95	0.77	inactive
ZNF679 (GeneID 168417)	1	-1.39	-1.29	-1.07	-1.79	inactive
CPED1 (GeneID 79974)	1	0.79	0.96	0.86	0.56	inactive
